Measured values from several laboratories, pooled; numbers as filed in NIAID ChemDB.

All rows: tests in culture; species: Plasmodium falciparum; endpoint: EC50

Blank or dashed fields: not listed here.

SMILES,method,strain,mutations,cells,setting,result
CC(=O)OC[C@@]12C(CC(C)(C)[C@@H](OC(=O)CC(C)C)[C@@H]1O)C1=CCC3[C@@]4(C)CC[C@H](O[C@@H]5O[C@H](C(=O)O)[C@@H](O)[C@H](O[C@@H]6O[C@H](CO)[C@H](O)[C@H](O[C@@H]7OC[C@H](O)[C@H](O)[C@H]7O)[C@H]6O)[C@H]5O[C@@H]5O[C@H](CO)[C@H](O)[C@H](O)[C@H]5O)C(C)(C)C4CC[C@@]3(C)[C@]1(C)C[C@H]2O,-,GHA,-,-,-,>64 µM
C[C@H]1[C@@H](O)O[C@@H]2OC3(C)CC[C@H]4[C@H](C)CC[C@@H]1[C@@]24OO3,LDH,3D7,-,-,-,0.006 µg/mL
CC[C@H]1OC(=O)[C@H](C)[C@@H](OC2C[C@@](C)(OC)[C@@H](O)[C@H](C)O2)[C@H](C)[C@@H](OC2O[C@H](C)C[C@H](N(C)C)[C@H]2O)[C@](C)(OC2C[C@@H](N(C)C)[C@@H](O)[C@H](C)O2)C[C@@H](C)CN(C)[C@H](C)[C@@H](O)[C@]1(C)O,fluorescence,W2 Mef AziR,-,RBC,120 h,0.22 µM
CN1CCN(CCC(=O)NC2CC3(N4CCCCC4)CC(c4ccccc4)C2C(c2ccccc2)C3)CC1,-,K1,-,human red blood cells,-,0.28 µM
CN(C)c1cc[n+](-c2ccc(C[n+]3cnc(N)c4[nH]cnc43)cc2)cc1,SYBR Green,3D7,-,-,-,>22.7 µM
CN1CCN(CCCN2CC3(N4CCN(C)CC4)CC(c4ccccc4)C2C(c2ccccc2)C3)CC1,-,K1,-,human red blood cells,-,0.25 µM
CCN(CC)CCCC(C)Nc1ccnc2cc(Cl)ccc12,-,NF54 chloroquine-sensitive,-,-,-,0.02 µM
O=c1cc(CNCCNc2ccnc3cc(Cl)ccc23)n(C2CC2)cc1O,radiometric,3D7,-,-,-,0.23 µM
Cc1[nH]nc2c1C(c1cc(C#N)cc(-c3ccc(C(=O)O)s3)c1)(C(C)C)C(C#N)=C(N)O2,radiometric,K1,-,-,-,1.06 µM
N=C(N)c1ccc(NCCCCNc2ccc(C(=N)N)cc2N)c(N)c1,hypoxanthine uptake,D6,-,-,-,0.659 µM
CN1CCN(C(=O)n2cc(-c3ccnc(N)n3)c3cc(Br)ccc32)CC1,LDH,D6,-,-,-,>14.43 µM
CCC1OC(O)(C(C)(O)C(=O)N[C@@H]2C(=O)N3NCCC[C@@H]3C(=O)N(O)[C@@H](COC)C(=O)N3NCC(OC4CC(OC)C(OC5CC(OC)C(O)C(C)O5)C(C)O4)=CC3C(=O)N3CC[C@@H](O)[C@H]3C(=O)N(O)[C@@H](CC)C(=O)O[C@H]2C(C)C)CCC1C(=O)C(C)(O)CC,absorbance,Dd2,MDR,-,-,0.007 µM
CCN(CC)CCCC(C)Nc1ccnc2cc(Cl)ccc12,-,Dd2,-,-,48 h,0.1 µg/mL
CN1CCC(NC2=CCC3=NC=C(c4cnn(-c5ncccc5F)c4)[N+]3=N2)CC1,-,-,-,-,-,1.28 µM
CCN(CC)CCCC(C)Nc1ccnc2cc(Cl)ccc12,-,RKL9,-,-,-,0.188 µM
CCN(CC)CCCC(C)Nc1ccnc2cc(Cl)ccc12,hypoxanthine uptake / radiometric,D6,-,-,-,0.017 µM
CN(C)c1cc[n+](-c2ccc(CCCCc3ccc(C[n+]4c[nH]c5c(SCc6ccccc6)ncnc54)cc3)cc2)cc1,SYBR Green,3D7,-,-,-,0.5 µM
CCCCCCCCCCCCc1cccc(C2(O)NC(=O)c3cnccc32)c1,broth dilution / radiometric,-,-,-,-,>2500 µM
CC(=O)O[C@H]1[C@H](OC(=O)CC(C)C)C(C)(C)CC2C3=CCC4[C@@]5(C)CC[C@H](O[C@@H]6O[C@H](C(=O)O)[C@@H](O)[C@H](O[C@@H]7O[C@H](CO)[C@H](O)[C@H](O[C@@H]8OC[C@H](O)[C@H](O)[C@H]8O)[C@H]7O)[C@H]6O[C@@H]6O[C@H](CO)[C@H](O)[C@H](O)[C@H]6O)[C@@](C)(C=O)C5CC[C@@]4(C)[C@]3(C)C[C@@H](O)[C@]21CO,-,GHA,-,-,-,>32 µM
Cc1c(-c2ccc(Cc3ccc(OC(F)(F)F)cc3)cc2)[nH]c2ccc(O)cc2c1=O,-,3D7,-,-,-,0.139 µM
O=C(O)COc1ccc(/C=C/C(=O)c2ccccc2)cc1,fluorescence,W2,-,-,-,>10 µM
C[C@H]1CCc2c([nH]c3ccccc23)[C@@]2(N1)C(=O)Nc1ccc(Cl)cc12,SYBR Green / fluorescence,GNF-Pf4492R-1,GNF-Pf4492-resistant A211T,-,-,0.00163 µM
OCCN1CCN(C(c2ccccc2)c2ccccc2)CC1,SYBR Green / fluorescence,D6,-,-,-,>2.5 µM
CC(=O)O[C@H]1[C@H](OC(=O)CC(C)C)C(C)(C)CC2C3=CCC4[C@@]5(C)CC[C@H](O[C@@H]6O[C@H](C(=O)O)[C@@H](O)[C@H](O[C@@H]7OC[C@H](O)[C@H](O[C@@H]8OC[C@H](O)[C@H](O)[C@H]8O)[C@H]7O)[C@H]6O[C@@H]6O[C@H](CO)[C@H](O)[C@H](O)[C@H]6O)[C@@](C)(C=O)C5CC[C@@]4(C)[C@]3(C)C[C@@H](O)[C@]21CO,-,GHA,-,-,-,>64 µM
C[C@H]1Cc2c([nH]c3cc(Cl)c(F)cc23)[C@@]2(N1)C(=O)Nc1ccc(Cl)cc12,SYBR Green / fluorescence,Dd2 (EF1),Multidrug-resistant,-,-,0.00069 µM
CN(Cc1ccc(F)cc1)C(=O)c1c[n+]2c(cn1)CN=C2c1ccc(C(F)(F)F)cc1,SYBR Green,-,-,-,-,>10 µM
CCN(CC)CCCC(C)Nc1ccnc2cc(Cl)ccc12,broth dilution / absorbance,W2,-,-,-,0.525 µM
N=C(N)c1cccc(OCCCCOc2cccc(C(=N)N)c2)c1,hypoxanthine uptake,W2,-,-,-,0.051 µM
CC1(C)C2CC[C@@]3(C)C4c5ccccc5N(C(=O)O)C4CC3[C@@]2(C)CC[C@H]1O,hypoxanthine uptake / radiometric,NF54,-,-,-,29.1 µM
O=[N+]([O-])c1ccc(N/N=C/c2cn(-c3ccc(Cl)cc3)nc2-c2ccccc2)c([N+](=O)[O-])c1,-,RKL9,-,-,-,0.068 µM
CCN(CC)CCCC(C)Nc1ccnc2cc(Cl)ccc12,-,CQ-resistant W2 strain,-,-,10% human serum,0.099 µM
CN1CCN(CC(=O)NC2CC3(N4CCCCC4)CC(c4ccccc4)C2C(c2ccccc2)C3)CC1,-,K1,-,human red blood cells,-,0.38 µM
CCn1c2c(c3ccccc31)C(=O)c1ccc3ccccc3c1C2=O,broth dilution,FRC-3,-,-,-,0.22 µM
CCN(CC)CCCC(C)Nc1ccnc2cc(Cl)ccc12,-,K1,-,-,-,0.148 µM
COC(=O)c1ccc(-c2cc(C#N)cc(C3(C4(F)COC4)C(C#N)=C(N)Oc4n[nH]c(C)c43)c2)s1,radiometric,NF54,-,-,-,0.22 µM
CC(C)Nc1nc2cc(-c3ccc(Cl)cc3)sc2c(=O)[nH]1.O=C(O)/C=C/C(=O)O,SYBR Green,K1,-,-,-,0.2 µM
COc1ccc2[nH]c(-c3ccc(Cc4ccc(OC(F)(F)F)cc4)cc3)c(C)c(=O)c2c1,-,W2,-,-,-,0.013 µM
COc1cc(OC)c(OC)cc1/C=C/C=C/C(=O)c1ccc(Cl)c(Cl)c1,SYBR Green / fluorescence,Dd2,-,-,-,78 µM
O=C1NC(c2c[nH]c3ccc(Br)cc23)Nc2ccccc21,LDH,D6,-,-,-,>14.43 µM
C=CCOc1ccc(/C=C/C(=O)c2c(O)c3ccccc3oc2=O)cc1OC,SYBR Green,3D7,-,-,-,>100 µM
COc1cc(OC)c(OC)cc1/C=C/C=C/C(=O)c1ccc2ccccc2c1,SYBR Green / fluorescence,3D7,-,-,-,50 µM
Cc1[nH]nc2c1C(c1cc(C#N)cc(C#N)c1)(C1CC=CC1)C(C#N)=C(N)O2,radiometric,NF54,-,-,-,1.42 µM
CN(CCCNc1ccnc2cc(Cl)ccc12)Cc1cc(=O)c(O)cn1C,radiometric,3D7,-,-,-,0.04 µM
Cc1[nH]nc2c1C(c1cc(Cl)cc(C#N)c1)(C1CC=CC1)C(C#N)=C(N)O2,radiometric,NF54,-,-,-,0.27 µM
COc1cc2c(NC3CCN(C)CC3)nc(N3CCCN(C)CC3)nc2cc1OCc1ccccc1,fluorescence,3D7,-,-,-,0.1 µM
O=c1cc(CNCCCCCCNc2ccnc3cc(Cl)ccc23)n(C2CC2)cc1Oc1ccccc1,radiometric,3D7,-,-,-,0.004 µM
Cc1[nH]nc2c1C(c1cc(C#N)cc(C#N)c1)(C(C)C)C(C#N)=C(N)O2,radiometric,NF54,-,-,-,0.69 µM
Cn1cc(O)c(=O)cc1CNCCCCCCNc1ccnc2cc(Cl)ccc12,radiometric,3D7,-,-,-,0.19 µM
COC(=O)CC1(O)C=CC(=O)C=C1,-,K1,-,-,-,7.82 µg/mL
Cc1[nH]nc2c1C(c1cc(Cl)cc(C#N)c1)(C(C)C)C(C#N)=C(N)O2,radiometric,NF54,-,-,-,0.55 µM
N=C(N)c1ccc(OCCOc2ccc(C(=N)N)cc2N)c(N)c1,hypoxanthine uptake,D6,-,-,-,0.779 µM
CCCCOC(=O)CC[C@H](NC(=O)c1ccc(-c2cc(C#N)cc(C3(C(C)C)C(C#N)=C(N)Oc4n[nH]c(C)c43)c2)s1)C(=O)OCCCC,radiometric,K1,-,-,-,2.35 µM
c1ccc(C2CC3(N4CCCCC4)CC(NCCCN4CCCC4)C2C(c2ccccc2)C3)cc1,-,K1,-,human red blood cells,-,0.23 µM
CCN(CC)CCCNC(=O)c1ccc(-c2cc(C#N)cc(C3(C(C)C)C(C#N)=C(N)Oc4n[nH]c(C)c43)c2)s1,radiometric,NF54,-,-,-,1.16 µM
COc1ccc(/C=C/C=C/C(=O)c2ccc(Cl)cc2)cc1OC,SYBR Green / fluorescence,3D7,-,-,-,22.5 µM
CCN(CC)CCCC(C)Nc1ccnc2cc(Cl)ccc12,LDH / absorbance,3D7,-,human red blood cells,-,0.05 µM
CCc1nc2nc(C)cc(Nc3cccc(Cl)c3)n2n1,-,3D7,-,-,-,0.79 µM
CCN(CC)CCCC(C)Nc1ccnc2cc(Cl)ccc12,radiometric,Dd2,-,-,-,0.1 µM
C=CCOc1ccc(-c2cc(-c3ccc(Cl)cc3)nc(N)n2)cc1OC,SYBR Green,3D7,-,-,-,>50 µM
O=C(CCc1ccccc1)c1ccccc1OCC(O)CN1CCN(c2ccccc2)CC1,-,K1,-,-,-,0.05 µM
Cn1cc(O)c(=O)cc1CNCCCCNc1ccnc2cc(Cl)ccc12,radiometric,3D7,-,-,-,0.67 µM
CCN(CC)CCCC(C)Nc1ccnc2cc(Cl)ccc12,-,NF54,-,-,-,0.006 µM
CCOC(=O)C1=C(O)/C(=C\c2cc(C)n(C3CCNCC3)c2C)N=C1C,-,K1,Chloroquine/pyrimethamine-resistant,-,-,12 µM
Cc1c(-c2cccc(Cc3ccc(OC(F)(F)F)cc3)c2)[nH]c2ccc(Cl)cc2c1=O,-,TM90C2B,-,-,-,0.094 µM
CC[C@H]1OC(=O)[C@H](C)[C@@H](OC2C[C@@](C)(OC)[C@@H](O)[C@H](C)O2)[C@H](C)[C@@H](OC2O[C@H](C)C[C@H](N(C)C)[C@H]2O)[C@](C)(O)C[C@@H](C)CN(C)[C@H](C)[C@@H](O)[C@]1(C)O,fluorescence,3D7,-,RBC,120 h,0.06 µM
O=C(/C=C/C=C/c1ccc2c(c1)OCO2)c1ccc(F)cc1,SYBR Green / fluorescence,3D7,-,-,-,50 µM

The last 3 rows once more:

| SMILES | method | strain | mutations | cells | setting | result |
|---|---|---|---|---|---|---|
| Cc1c(-c2cccc(Cc3ccc(OC(F)(F)F)cc3)c2)[nH]c2ccc(Cl)cc2c1=O | - | TM90C2B | - | - | - | 0.094 µM |
| CC[C@H]1OC(=O)[C@H](C)[C@@H](OC2C[C@@](C)(OC)[C@@H](O)[C@H](C)O2)[C@H](C)[C@@H](OC2O[C@H](C)C[C@H](N(C)C)[C@H]2O)[C@](C)(O)C[C@@H](C)CN(C)[C@H](C)[C@@H](O)[C@]1(C)O | fluorescence | 3D7 | - | RBC | 120 h | 0.06 µM |
| O=C(/C=C/C=C/c1ccc2c(c1)OCO2)c1ccc(F)cc1 | SYBR Green / fluorescence | 3D7 | - | - | - | 50 µM |

Neighbouring rows are from separate reports. ECn is the concentration giving n% inhibition of infection, replication or growth.